Assay results: patent US7691818B2 (Universita' Degli Studi Di Treiste, priority 2004, dated 2010)

Test: general procedure: solution-phase peptide synthesis; PyBOP/HOBT/collidine

Substance | isolated yield (whole synthesis) | step yield (coupling step)
NH-Ac-Ser-Leu-Asn-Phe-[φ]-Pro-Ile-Val-NH-Ac | 12% | –
NH-Ac-Trp-Val-Phe-[φ]-Pro-Val-Trp-NH-Ac | – | 50%
